Assay results from patent publication EP0352000A2 (SMITHKLINE BECKMAN CORPORATION, priority 1988, dated 1990).
Values joined by “and” are separate entries in the source; they are usually repeats but may differ in a detail not shown here. Equal values may be shown once. Where no end group is shown, it is not given here. [ ]: non-standard residue; d: D form. The star is where a group is joined. Dansyl = CN(C)c1cccc2c(S(=O)(=O)*)cccc12; Cha = N[C@@H](CC1CCCCC1)C(=O)O; Boc = CC(C)(C)OC(=O)*

Assays:
[1] = general procedure: Boc solid-phase peptide synthesis; benzhydrylamine resin (BHA); DCC/HOBt; conditions: for crude yield / crude mass / isolated mass: whole synthesis
[2] = general procedure: Boc solid-phase peptide synthesis; BHA; DCC/HOBt; conditions: whole synthesis
[3] = general procedure: Boc solid-phase peptide synthesis; Merrifield resin; DCC/HOBt; conditions: whole synthesis

2-(acetyl seryl glutaminyl asparaginyl)amino-3-phenyl-propyl-prolylvalylvalinamide
crude yield [1]: 37% | crude mass ([2]; scale 1.0 mmol (half of resin used)): 150 mg

2-(seryl glutaminylasparaginyl)amino-3-phenylpropyl-prolylvalyl valinamide
crude yield [1]: 62% | crude mass ([2]; scale 0.4 mmol): 192.5 mg

2-isopropylamino-3-phenyl-propyl-prolylvalyl valinamide
crude mass ([1]; scale 0.5 mmol): 139.6 mg | isolated mass ([1]; scale 0.5 mmol): 81.1 mg

4-(serylglutaminylasparaginyl)amino-3(R)-hydroxy-1-oxo-5-phenylpentyl-valyl valinamide
crude mass ([2]; scale 1 mm): 85 mg

4-(serylglutaminylasparaginyl)amino-3(S)-hydroxy-1-oxo-5-phenylpentyl-valyl valinamide
isolated mass ([1]; scale 1 mm): 12 mg

4-(tert-butyloxycarbonyl-(O-benzyl)serylalanylalanyl)amino-2,2-difluoro-1,3-dioxo-5-phenylpentyl-valyl valine methyl ester
step yield ([1]; late stage modification step): 69% yield

4-(tert-butyloxycarbonyl-serylalanylalanyl)amino-2,2-difluoro-1,3-dioxo-5-phenylpentyl-valyl valine methyl ester
step yield ([1]; late stage modification step): 67%

(1R,2R) 2-(((1S,2S)-1-hydroxy-2-(t-butyloxycarbonyl-(O-phenylmethyl)serylalanylalanyl)amino-3-cyclohexyl)propyl) cyclopentanecarbonyl-valyl valine methyl ester
step yield ([1]; coupling step): 46% yield

(1S,2S)-2-(((1R,2S)-2-(tert-butyloxycarbonyl-L-(O-phenylmethyl)serylalanylalanyl)amino-1-hydroxy-3-phenyl)propyl)cyclopentylcarbonyl-valyl valine methyl ester
step yield ([1]; coupling step): 67% yield

(1S,2S)-2-(((1R,2S)-2-(tert-butyloxycarbonylserylalanylalanyl)amino-1-hydroxy-3-phenyl)propyl)cyclopentylcarbonyl-L-valyl-L-valine methyl ester
step yield ([1]; late stage modification step): 90% yield

(1S,2S)-2-(((1S,2S)-2-(tert-butyloxycarbonyl-L-(O-phenylmethylene)serylalanylalanyl)amino-1-hydroxy-3-phenyl)propyl)cyclopentylcarbonyl-valyl valine methyl ester
step yield ([1]; coupling step): 65% yield

(1S,2S)-2-(((1S,2S)-2-(tert-butyloxycarbonyl-L-serylalanylalanyl)-amino-1-hydroxy-3-phenyl)propyl)cyclopentanecarbonyl-valyl valine methyl ester
step yield ([1]; late stage modification step): 92% yield

(3R,4S)-4-(tert-butyloxycarbonyl-(O-benzyl)serylalanylalanyl)amino-2,2-difluoro-3-hydroxy-1-oxo-5-phenylpentylvalyl valine methyl ester
step yield ([1]; coupling step): 83%

(3R,4S)-4-(tert-butyloxycarbonyl-serylalanylalanyl)amino-2,2-difluoro-3-hydroxy-1-oxo-5-phenylpentyl-valyl-L-valine methyl ester
step yield ([1]; late stage modification step): 99%

(4S,5S) 5-((carbobenzyloxy-D-seryl)alanylalanyl)amino-4-hydroxy-1-oxo-6-phenylhexyl-valyl valine methyl ester
step yield ([1]; coupling step): 14% yield

(4S,5S) 5-((carbobenzyloxy-β-alanyl)alanyl)amino-4-hydroxy-1-oxo-6-(4-hydroxyphenyl)hexyl-valyl valine methyl ester
step yield ([1]; coupling step): 20%

(4S,5S) 5-(alanylalanyl)amino-4-hydroxy-1-oxo-6-cyclohexyl-hexyl-valyl valine methyl ester
step yield ([1]; late stage modification step): 62% yield

(4S,5S) 5-(carbobenzyloxy-(O-phenylmethyl)serylalanylalanyl) amino-4-hydroxy-1-oxo-6-phenylhexyl-valyl valine methyl ester
step yield ([1]; coupling step): 52% yield

(4S,5S) 5-(carbobenzyloxyalanylalanyl)amino-4-hydroxy-1-oxo-6-phenylhexyl-valyl valine methyl ester
step yield ([1]; coupling step): 68% yield

(4S,5S) 5-(tert-butyloxycarbonylalanyl)amino-4-hydroxy-1-oxo-6-(4-hydroxyphenyl)hexyl-valyl valine methyl ester
step yield ([1]; coupling step): 55% | step yield ([1]; late stage modification step): 70%

(4S,5S) 5-[(O-phenylmethyl)serylalanylalanyl]amino-1-oxo-6-phenylhexyl-valyl valine methyl ester, acetic acid salt
step yield ([1]; late stage modification step): 94% yield

(4S,5S)-5-(carbobenzyloxyalanyl)amino-4-hydroxy-1-oxo-6-(4-benzyloxyphenyl)hexyl-valyl valine methyl ester
step yield ([1]; coupling step): 82%

(4S,5S)-5-(carbobenzyloxyalanylalanyl)amino-4-(tert-butyldimethylsiloxy)-6-phenyl-(1-oxo)hexyl-valine isobutylamide
step yield ([1]; coupling step): 60 % yield

(4S,5S)-5-(carbobenzyloxyalanylalanyl)amino-6-(4-benzyloxy)phenyl-4-hydroxy-(1-oxo)hexyl-valyl valine methyl ester
step yield ([1]; coupling step): 77%

(4S,5S)-5-(methoxycarbonyl-alanylalanyl)amino-6-phenyl-4-hydroxy-(1-oxo)hexyl-valyl valine
step yield ([1]; late stage modification step): 95% yield

AAQNYPVV-NH2
crude mass ([1]; scale 0.5 mmol): 265 mg

ANYPVV-NH2
isolated mass ([1]; scale 0.5 mmol): 116.7 mg | crude mass ([2]; scale 0.5 mmol): 136.6 mg

ASQNYPVV-NH2
step yield ([1]; purification step): 75.5% | crude yield [1]: 56.0%

Ac-AQGYPVV-NH2
isolated mass ([1]; scale 0.5 mmol): 235 mg | crude mass ([2]; scale 0.5 mmol): 275 mg

Ac-AQNYPVV-NH2
crude mass ([1]; scale 0.5 mmol): 275 mg | isolated mass ([1]; scale 0.5 mmol): 235 mg

Ac-ATLNFPISPIE-NH2
crude mass ([1]; scale 1 mmol): 862.3 mg

Ac-Arg-Lys-Ile-Leu-(4′NO₂)Phe-Leu-Asp-Gly-NH₂
crude mass ([2]; scale 1.0 mmol): 980 mg

Ac-CQNYPVV-NH2
crude mass ([1]; scale 0.5 mmol): 292 mg | isolated mass ([1]; scale 0.5 mmol): 188 mg

Ac-DQNYPVR-NH2
crude mass ([2]; scale 0.5 mmol): 404 mg

Ac-DQNYPVV-NH2
step yield ([1]; purification step): 81.2% | crude yield [1]: 65.9%

Ac-HQNYPVV-NH2
step yield ([1]; purification step, run 1): 65.3% and 55.2% | crude yield [1]: 69.4%

Ac-RASQNYP-NH2
crude mass ([2]; scale 1.0 mmol): 621 mg

Ac-RKILFLDG-NH2
crude mass ([2]; scale 1.0 mmol): 520 mg

Ac-SANYPVV-NH2
crude yield [1]: 84% yield

Ac-SENYPVV-NH2
crude yield [1]: 67% yield

Ac-SGNYPVV-NH2
crude mass ([1]; scale 0.5 mmol): 167 mg | isolated mass ([1]; scale 0.5 mmol): 138 mg

Ac-SKNYPVV-NH2
crude yield [1]: 81% yield

Ac-SQAYPVV-NH2
crude yield [1]: 55% yield | crude mass ([1]; scale One-half mole): 220 mg

Ac-SQDYPVV-NH2
crude yield [1]: 80% yield

Ac-SQGYPKV-NH2
crude mass ([2]; scale 0.5 mmol): 280 mg

Ac-SQGYPVV-NH2
step yield ([1]; purification step): 72.5% | crude yield [1]: 50.6%

Ac-SQKYPVV-NH2
crude yield [1]: 77.32% yield

Ac-SQNFPVV-NH2
crude mass ([2]; scale 1.0 mmol): 573 mg

Ac-SQNYPEV-NH2
crude mass ([2]; scale 0.5 mmol): 184 mg

Ac-SQNYPGV-NH2
crude mass ([2]; scale 0.5 mmol): 153 mg

Ac-SQNYPVR-NH2
crude mass ([1]; scale One mmole): 639 mg

Ac-SQNY[dP]VV-NH2
crude mass ([1]; scale One mmole): 406 mg | isolated mass ([1]; scale One mmole): 260 mg

Ac-SQN[Cha]PVV-NH2
crude mass ([2]; scale 0.5 mmol): 280 mg

Ac-SQRYPVV-NH2
crude yield [1]: 86% yield

Ac-SQSYPVV-NH2
crude yield [1]: 70% yield

Ac-SRNYPVV-NH2
crude yield [1]: 80% yield

Ac-SSNYPVV-NH2
crude yield [1]: 70% yield

Ac-Ser-Gln-Asn-(4′NO₂)Phe-Pro-Val-Val-NH₂
crude yield [1]: 80% yield

Ac-Ser-Gln-Asn-Tyr-Pro
crude mass ([3]; scale 1.0 mmol): 458.5 mg

Ac-Ser-Gln-Asn-Tyr-Pro-NH₂
crude mass ([2]; scale 1.0 mmol): 400 mg

Ac-Ser-Gln-Asn-Tyr-Δ3-Pro-Val-Val-NH₂
crude mass ([1]; scale 0.5 mmol): 250 mg

Ac-Tyr-Pro-Val-Val-NH₂
crude mass ([2]; scale 0.5 mmol): 98.7 mg

Ac-[dS]GNYPVV-NH2
crude mass ([2]; scale 0.5 mmol): 248 mg

Asn-Tyr-Pro-Val-Val-NH₂
crude mass ([2]; scale 0.5 mmol): 145 mg

Boc-SQNYPEV-NH2
crude mass ([2]; scale 0.5 mmol): 216 mg

DQNYPVV-NH2
crude mass ([2]; scale 1.0 mmol): 671 mg

Dansyl-SQNYPVV-NH2
crude mass ([1]; scale One-half mmole): 290 mg

SQNYPAV-NH2
crude mass ([2]; scale 0.5 mmol): 202 mg

SQNYPVV
crude mass ([3]; scale 0.5 mmol): 248.8 mg

SQNYPVV-NH2
step yield ([1]; purification step): 83.5% | crude yield [1]: 55.9%

SQN[Cha]PVV-NH2
crude mass ([2]; scale 0.5 mmol): 316 mg

[dS]QNYPVV-NH2
crude mass ([2]; scale 0.5 mmol): 271 mg

trans-2-((1-methoxy-1-(2-phenyl-1-(tert-butyloxycarbonyl-(O-phenylmethyl)serylalanylalanyl)amino)ethyl)phosphinyl)cyclopentyl-carbonyl-valyl valine methyl ester
step yield ([1]; coupling step): 65% yield

trans-2-((1-methoxy-1-(2-phenyl-1-(tert-butyloxycarbonylserylalanylalanyl)amino)ethyl)phosphinyl)cyclopentylcarbonylvalyl valine methyl ester
step yield ([1]; late stage modification step): 93% yield
